Reference: PMC4481223

Target: fused Cp (genetically-fused dimer of the hepatitis B virus core protein assembly domain) (hepatitis B virus)
Test: native MS; non-covalent ESI-MS of the disassembly reaction without prior SEC: fused Cp capsids in 4 M urea, 50 mM ammonium acetate pH 9.5, 5 mM DTT, 4 °C ~16 h, then dialysed into 50 mM ammonium acetate pH 9.5, 5 mM DTT

“fused Cp (genetically-fused dimer of the hepatitis B virus core protein assembly domain)” gave a stoichiometry N of 4 copies.
